The target in one series is T1, NF-kB p50 (UniProt P25799).
T1 sequence (looked up, limits assumed): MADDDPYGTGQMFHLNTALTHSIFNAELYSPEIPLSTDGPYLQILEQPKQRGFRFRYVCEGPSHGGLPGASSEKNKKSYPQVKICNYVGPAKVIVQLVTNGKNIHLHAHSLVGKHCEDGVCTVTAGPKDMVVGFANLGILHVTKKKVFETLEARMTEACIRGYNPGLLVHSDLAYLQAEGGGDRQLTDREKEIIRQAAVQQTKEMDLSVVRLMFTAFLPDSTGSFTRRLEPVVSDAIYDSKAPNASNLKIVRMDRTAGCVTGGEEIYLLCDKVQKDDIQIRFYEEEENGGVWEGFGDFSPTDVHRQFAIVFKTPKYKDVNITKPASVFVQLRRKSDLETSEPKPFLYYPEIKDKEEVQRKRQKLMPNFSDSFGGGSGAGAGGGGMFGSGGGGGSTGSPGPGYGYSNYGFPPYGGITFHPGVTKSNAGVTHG
Put plainly: DNA pull-down, immunoblot. As to conditions: LPS 12 h nuclear extract; Nuclear extracts of LPS-treated BMDCs, streptavidin Dynabeads; protein in an extract; label: biotin (pulldown), 32P (EMSA).

Chains of the proteins cited; added tags and fusions are not shown.
UniProt Q04207, whole entry: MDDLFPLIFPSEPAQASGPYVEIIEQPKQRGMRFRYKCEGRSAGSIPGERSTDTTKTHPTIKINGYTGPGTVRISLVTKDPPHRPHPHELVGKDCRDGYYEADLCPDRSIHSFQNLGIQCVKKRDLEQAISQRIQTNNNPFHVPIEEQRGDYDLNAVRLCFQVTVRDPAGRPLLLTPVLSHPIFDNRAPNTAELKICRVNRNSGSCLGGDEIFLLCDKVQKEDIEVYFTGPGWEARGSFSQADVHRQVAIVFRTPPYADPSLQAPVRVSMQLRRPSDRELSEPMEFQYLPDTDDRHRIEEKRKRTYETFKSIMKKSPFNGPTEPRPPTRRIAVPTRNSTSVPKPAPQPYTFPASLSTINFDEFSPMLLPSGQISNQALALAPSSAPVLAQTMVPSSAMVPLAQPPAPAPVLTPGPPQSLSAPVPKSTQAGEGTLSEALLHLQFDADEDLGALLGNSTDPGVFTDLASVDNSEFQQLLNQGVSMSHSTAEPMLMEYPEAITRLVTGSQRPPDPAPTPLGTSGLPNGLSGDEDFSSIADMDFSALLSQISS

The target in a further series is NF-kB p65 (UniProt Q04207). The series is described as follows: DNA pull-down, immunoblot. As to conditions: LPS 12 h nuclear extract; Nuclear extracts of LPS-treated BMDCs, streptavidin Dynabeads; protein in an extract; label: biotin (pulldown), 32P (EMSA). In general terms: A gel shift assay detects complexes by their altered migration in electrophoresis.

Construct, isoform or probe ends are uncertain for at least one entry. At least one result comes from cells or an extract, where the contact may be indirect. For some assays here: Where a protein sequence is shown, tags need not be part of it.

For the sequence “CATTTGACAGGATACTCCCTCAGGACGGAAC (double strand) [CLEC1B-Pr]”, the binding result in the series with NF-kB p50 and in the series with NF-kB p65 was “binds” each time.

The values are drawn from article PMC10269552.
